Test results reported in publication PMC11377810, “A Gaussia luciferase reporter assay for the evaluation of coronavirus Nsp5/3CLpro activity” (Scientific Reports, 2024).

Target: SARS-CoV-2 Nsp5 (Severe acute respiratory syndrome coronavirus 2, UniProt P0DTD1)

COc1cccc2[nH]c(C(=O)N[C@@H](CC(C)C)C(=O)N[C@@H](C[C@@H]3CCNC3=O)C(=O)CO)cc12 [PF-00835231]
effect on Nsp5 at non-cytotoxic concentrations: did not have a significant effect
